Reference: PMC1949145, “Kinetic Analysis of Yersinia pestis DNA Adenine Methyltransferase Activity Using a Hemimethylated Molecular Break Light Oligonucleotide” (2007)

Assays:
[1] = target: T1, Y. pestis Dam (His6-tagged) (Yersinia pestis, UniProt A0AAP0YVJ7); test: continuous DpnI-coupled break light fluorescence assay; replot of apparent Km; settings: read-out: Y. pestis; competitive analysis vs AdoMet (20-200 µM); 33 nM hemimethylated oligonucleotide 1, 1 nM Dam, Mg acetate, Tris-acetate pH 7.9 buffer, 37 °C
[2] = target: T1, Y. pestis Dam (His6-tagged); test: continuous DpnI-coupled break light fluorescence assay; hyperbolic fit; settings: read-out: Y. pestis; 33 nM hemimethylated oligonucleotide 1, 1.0 nM Dam, 2.5-200 µM AdoMet, Mg acetate, Tris-acetate pH 7.9 buffer, 37 °C

Row | SMILES | Ki [1] [µM] | Km [2] [µM]
1 | Nc1ncnc2c1ncn2[C@@H]1O[C@H](CSCC[C@H](N)C(=O)O)[C@@H](O)[C@H]1O | 6.93 | 
2 | C[S+](CC[C@H](N)C(=O)O)C[C@H]1O[C@@H](n2cnc3c(N)ncnc32)[C@H](O)[C@@H]1O (some centres unmarked) |  | 11.3
